Experimental data: PubChem BioAssay AID1259414 (Drosophila RNAi Screening Center, 2018)
Test: 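Fly genes that alter Wolbachia amount inside host cells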 (primary screen). Cells: Drosophila JW18 cells infected with Wolbachia. Reagents: long dsRNA against Drosophila genes, 0.25 µg dsRNA per well of a 384-well plate. Timing: 5 days. Challenge: cells persistently infected with Wolbachia before knock-down; no added drug. Detection: 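Automated imaging of bacterial rRNA staining divided by host cell count, reported as plate-normalised robust z-score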. Reading the numbers: Wolbachia per cell robust z: higher = more Wolbachia per host cell than the plate typical. Active means: 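Active if absolute robust z reaches 1.5 in two or more of three replicates, leaving out multi- or no-target dsRNAs, genes unexpressed in JW18 and A1 wells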.
In all, the deposit lists about 24,000 reagents; below is a random part of those that have a named target and a result. Of all reagents, about 1,210 (5%) were called active. 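Inactive calls also include excluded dsRNAs with several or no targets, genes unexpressed in JW18, and well A1, regardless of score.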 Unmarked entries are inactive.

For CG14453 [DRSC11710] the deposit lists Wolbachia per cell robust z, rep 1 = 0.781; Wolbachia per cell robust z, rep 2 = 0.131; Wolbachia per cell robust z, rep 3 = -0.838. Silencing of CG14453 [DRSC23780] came out at: Wolbachia per cell robust z, rep 1 = -0.0487; Wolbachia per cell robust z, rep 2 = 1.23; Wolbachia per cell robust z, rep 3 = 0.000399. CG9040 [DRSC11053] scored Wolbachia per cell robust z, rep 1 = -0.0327; Wolbachia per cell robust z, rep 2 = -0.599; Wolbachia per cell robust z, rep 3 = 0.0475. Against CG7791 [DRSC04891], the values are Wolbachia per cell robust z, rep 1 = -3.68; Wolbachia per cell robust z, rep 2 = 1.06; Wolbachia per cell robust z, rep 3 = -0.462. Silencing of Roc2 [DRSC07313] resulted in: Wolbachia per cell robust z, rep 1 = -0.203; Wolbachia per cell robust z, rep 2 = 0.237; Wolbachia per cell robust z, rep 3 = -0.129. Depletion of Roc2 [DRSC27174] came out at: Wolbachia per cell robust z, rep 1 = -0.937; Wolbachia per cell robust z, rep 2 = 0.298; Wolbachia per cell robust z, rep 3 = 0.233.

After knock-down of CG16753 [DRSC08489], the record shows Wolbachia per cell robust z, rep 1 = -0.785; Wolbachia per cell robust z, rep 2 = -1.44; Wolbachia per cell robust z, rep 3 = -0.316. After knock-down of MFS17 [DRSC37735] the results were Wolbachia per cell robust z, rep 1 = 0.435; Wolbachia per cell robust z, rep 2 = 0.276; Wolbachia per cell robust z, rep 3 = 0.858. Knock-down of Ir100a [DRSC14329] came out at: Wolbachia per cell robust z, rep 1 = 1.57 (active); Wolbachia per cell robust z, rep 2 = 1.87; Wolbachia per cell robust z, rep 3 = 2.08. Silencing of Ir100a [DRSC25881] gave: Wolbachia per cell robust z, rep 1 = -0.363; Wolbachia per cell robust z, rep 2 = 0.782; Wolbachia per cell robust z, rep 3 = 1.11. With knock-down of sns [DRSC07687], the screen gave Wolbachia per cell robust z, rep 1 = 1.06; Wolbachia per cell robust z, rep 2 = 1.03; Wolbachia per cell robust z, rep 3 = 0.725. Knock-down of sns [DRSC07688] gave: Wolbachia per cell robust z, rep 1 = -2.43 (active); Wolbachia per cell robust z, rep 2 = -2; Wolbachia per cell robust z, rep 3 = -1.68.

Depletion of sns [DRSC07689] gave: Wolbachia per cell robust z, rep 1 = 0.599; Wolbachia per cell robust z, rep 2 = -0.348; Wolbachia per cell robust z, rep 3 = -0.535. Against sns [DRSC07691], the values are Wolbachia per cell robust z, rep 1 = -0.646; Wolbachia per cell robust z, rep 2 = -0.601; Wolbachia per cell robust z, rep 3 = 0.877. With knock-down of CG13081 [DRSC02185], the screen gave Wolbachia per cell robust z, rep 1 = 0.666; Wolbachia per cell robust z, rep 2 = 0.367; Wolbachia per cell robust z, rep 3 = 1.39. oaf [DRSC00831] gave Wolbachia per cell robust z, rep 1 = -2.71 (active); Wolbachia per cell robust z, rep 2 = -1.79; Wolbachia per cell robust z, rep 3 = 0.862.

Part of the list above, set out differently.
predicted target	DRSC id	Wolbachia per cell robust z, rep 1	Wolbachia per cell robust z, rep 2	Wolbachia per cell robust z, rep 3
Ir100a	DRSC14329	1.57 (active)	1.87	2.08
Ir100a	DRSC25881	-0.363	0.782	1.11

The results go on.
For CG17287 [DRSC06659] the deposit lists Wolbachia per cell robust z, rep 1 = -3.49; Wolbachia per cell robust z, rep 2 = -0.553; Wolbachia per cell robust z, rep 3 = 0.446. CtsL1 [DRSC05462] gave Wolbachia per cell robust z, rep 1 = 0.348; Wolbachia per cell robust z, rep 2 = 0.946; Wolbachia per cell robust z, rep 3 = 0.802. Depletion of CtsL1 [DRSC07363] resulted in: Wolbachia per cell robust z, rep 1 = 0.0532; Wolbachia per cell robust z, rep 2 = -0.286; Wolbachia per cell robust z, rep 3 = -0.126. Depletion of CtsL1 [DRSC29071] resulted in: Wolbachia per cell robust z, rep 1 = -1.82 (active); Wolbachia per cell robust z, rep 2 = -2.29; Wolbachia per cell robust z, rep 3 = -2.38. Against CG10343 [DRSC02041], the values are Wolbachia per cell robust z, rep 1 = 1.09; Wolbachia per cell robust z, rep 2 = 0.0326; Wolbachia per cell robust z, rep 3 = 1.06. With knock-down of CG10343 [DRSC27740] the results were Wolbachia per cell robust z, rep 1 = 0.253; Wolbachia per cell robust z, rep 2 = 1.09; Wolbachia per cell robust z, rep 3 = 0.381.

With knock-down of lft [DRSC02236] the results were Wolbachia per cell robust z, rep 1 = 0.0147; Wolbachia per cell robust z, rep 2 = -6.1; Wolbachia per cell robust z, rep 3 = -0.946. Knock-down of CG4704 [DRSC15628] resulted in: Wolbachia per cell robust z, rep 1 = 0.568; Wolbachia per cell robust z, rep 2 = -0.739; Wolbachia per cell robust z, rep 3 = 0.855. Depletion of Sirt7 [DRSC14294] resulted in: Wolbachia per cell robust z, rep 1 = 1.46; Wolbachia per cell robust z, rep 2 = -10.7; Wolbachia per cell robust z, rep 3 = 0.366. Sirt7 [DRSC26219] gave Wolbachia per cell robust z, rep 1 = -0.0903; Wolbachia per cell robust z, rep 2 = -0.48; Wolbachia per cell robust z, rep 3 = 0.399. Npl4 [DRSC15615] gave Wolbachia per cell robust z, rep 1 = -0.919; Wolbachia per cell robust z, rep 2 = 0.303; Wolbachia per cell robust z, rep 3 = 0.669. Against Npl4 [DRSC15616], the values are Wolbachia per cell robust z, rep 1 = -3.54; Wolbachia per cell robust z, rep 2 = 0.679; Wolbachia per cell robust z, rep 3 = -1.13.

After knock-down of DIP-zeta [DRSC02203], the screen gave Wolbachia per cell robust z, rep 1 = 0.93; Wolbachia per cell robust z, rep 2 = -1.74; Wolbachia per cell robust z, rep 3 = 0.431. Knock-down of DIP-zeta [DRSC02204] came out at: Wolbachia per cell robust z, rep 1 = 0.409; Wolbachia per cell robust z, rep 2 = 2.13; Wolbachia per cell robust z, rep 3 = 0.334. For DIP-zeta [DRSC02205], the values are Wolbachia per cell robust z, rep 1 = 0.639; Wolbachia per cell robust z, rep 2 = 1.59; Wolbachia per cell robust z, rep 3 = 0.707.
